Anti-infective test results gathered from many reports (values: NIAID ChemDB through PubChem).

All rows: tests in culture; species: HIV-1; cell line: MT-4; measure: EC50

Lines come from different laboratories, so protocols vary. Two numbers with a dash give a range or band. ECn is the concentration giving n% inhibition of infection, replication or growth. Blank or dashed fields: not listed here.

structure	strain	mutations	read by	conditions	value
Cc1cn([C@H]2C[C@H](N=[N+]=[N-])[C@@H](CO)O2)c(=O)[nH]c1=O	RES056	-	MTT	-	0.028 µM
CCOCn1c(Cc2ccccc2)c(C(C)C)c(=O)[nH]c1=O	A17	K103N + Y181C	MTT	-	56 µM
COc1ccc(-c2nnc(S[C@@H]3O[C@H](COC(C)=O)[C@@H](OC(C)=O)[C@H](OC(C)=O)[C@H]3OC(C)=O)n2N)cc1	NNRTI-resistant N119	RT-Y181C	-	-	>100 µM
CCc1c(Cc2cc(C)cc(C)c2)n(COCCOc2ccccc2)c(=O)[nH]c1=O	IIIB	Efavirenz-resistant (K103R + V179D + P225H)	MTT	-	11 µM
CC(C)CN(C[C@@H](O)[C@H](Cc1ccccc1)NC(=O)O[C@H]1CO[C@H]2OCC[C@H]21)S(=O)(=O)c1ccc2c(c1)/C(=C/c1cccn1C)C(=O)N2	F	PR-L10F M46I M71V I84V	cytopathic effect / MTT	-	0.032 µM
CCn1cc(C(=O)O)c(=O)c2cc(F)c(N3CCN(CN4C(=O)C(=Nc5ccc(S(=O)(=O)Nc6ncnc(OC)c6OC)cc5)c5ccccc54)CC3)cc21	IIIB	-	cytopathic effect / MTT	-	>88 µg/mL
CC(=O)OC[C@H]1O[C@@H](Sc2nnc(-c3ccc(C)cc3)n2N)[C@H](OC(C)=O)[C@@H](OC(C)=O)[C@@H]1OC(C)=O	NNRTI-resistant N119	RT-Y181C	-	-	>100 µM
CCn1cc(C(=O)O)c(=O)c2cc(F)c(N3CCN(CN4C(=O)/C(=N\c5ncc(Cc6cc(OC)c(OC)c(OC)c6)c(N)n5)c5cc(Cl)ccc54)CC3)cc21	IIIB	-	cytopathic effect / MTT	-	11.3 µg/mL
CN1c2ccccc2C2C1C=CC(=O)N2c1ccc(-c2noc(=O)n2CC#N)cc1	LAI	-	cytopathic effect / MTT	-	1–32 µM
CCc1c(Cc2cc(OC)cc(OC)c2)n(COCCOc2ccccc2)c(=O)[nH]c1=O	N119	Y181C	MTT	-	>41 µM
Cc1ccnc2c1NC(=O)c1cccnc1N2C1CC1	IIIB	E138K	MTT	-	0.16 µM
COc1cc(Cc2c(C(C)C)c(=O)[nH]c(=O)n2COCCOc2ccccc2)cc(OC)c1	A17	K103N + Y181C	MTT	-	>33 µM
COc1ccc(-c2n[nH]c(=S)n2N)cc1	IIIB	-	-	-	>100 µM
COC(=O)N[C@H](C(=O)N[C@@H](Cc1ccccc1)C[C@H](O)[C@H](Cc1ccc(-c2ccc(OC)cc2)cc1)NC[C@@H](NC(=O)OC)C(C)(C)C)C(C)(C)C	pNL4-3	-	MTT	-	1 nM
COc1cc(Cc2[nH]c(=S)[nH]c(=O)c2C(C)C)cc(OC)c1	A17	K103N + Y181C	MTT	-	>100 µM
COC(=O)N[C@H](C(=O)N[C@@H](Cc1ccccc1)C[C@H](O)[C@H](Cc1ccc(-c2cccnc2)cc1)NC[C@@H](NC(=O)OC)C(C)(C)C)C(C)(C)C	pNL4-3	-	MTT	50% human serum	35 nM
Cn1c2ccccc2c2c1cc(C#N)c(=O)n2-c1ccc([N+](=O)[O-])cc1	A	RT-Y181C	cytopathic effect / MTT	-	0.1 µM
COc1cc(Cc2[nH]c(=O)[nH]c(=O)c2C(C)C)cc(OC)c1	A17	K103N + Y181C	MTT	-	>100 µM
COC(=O)N[C@H](C(=O)N[C@@H](Cc1ccccc1)C[C@H](O)[C@H](Cc1ccc(-c2ccc(O)cc2)cc1)NC[C@@H](NC(=O)OC)C(C)(C)C)C(C)(C)C	pNL4-3	-	MTT	-	13 nM
CC(C)CN(C[C@@H](O)[C@H](Cc1ccccc1)NC(=O)O[C@H]1CO[C@H]2OCC[C@H]21)S(=O)(=O)c1ccc2c(c1)/C(=C/c1ccc(N(C)C)cc1)C(=O)N2	LAI	-	cytopathic effect / MTT	-	0.04 µM
COC(=O)N[C@H](C(=O)N[C@@H](Cc1ccccc1)C[C@H](O)[C@H](Cc1ccc(-c2ccc(C(C)=O)cc2)cc1)NC[C@@H](NC(=O)OC)C(C)(C)C)C(C)(C)C	pNL4-3	-	MTT	50% human serum	3 nM
CC(C)CN(C[C@@H](O)[C@H](Cc1ccccc1)NC(=O)O[C@H]1CO[C@H]2OCC[C@H]21)S(=O)(=O)c1ccc2c(c1)/C(=C/c1ccc[nH]1)C(=O)N2	F	PR-L10F M46I M71V I84V	cytopathic effect / MTT	-	0.03 µM
Cc1ccc(-c2nnc3sc(C(N)CC(C)C)nn23)cc1	IIIB	-	-	-	>100 µM
COP(=O)(c1cc(C)cc(CCC#N)c1)c1c(C(N)=O)[nH]c2ccc(Cl)cc12	NL4-3	K103N	p24 / ELISA	-	0.0015 µM
COc1ccc(/C=C2\C(=O)Nc3ccc(S(=O)(=O)N(CC(C)C)C[C@@H](O)[C@H](Cc4ccccc4)NC(=O)O[C@H]4CO[C@H]5OCC[C@H]54)cc32)cc1	F	PR-L10F M46I M71V I84V	cytopathic effect / MTT	-	0.034 µM
COC(=O)N[C@H](C(=O)N[C@@H](Cc1ccccc1)C[C@H](O)[C@H](Cc1ccc(-c2cncnc2)cc1)NC[C@@H](NC(=O)OC)C(C)(C)C)C(C)(C)C	pNL4-3	-	MTT	50% human serum	58 nM
CCn1cc(C(=O)O)c(=O)c2cc(F)c(N3CCN(CN4C(=O)C(=Nc5ccc(S(=O)(=O)Nc6ncccn6)cc5)c5cc(Cl)ccc54)CC3)cc21	IIIB	-	cytopathic effect / MTT	-	>63 µg/mL
CN(C)C=Nc1ccc(N2C(=O)C(C#N)=CC3C2c2ccccc2N3C)cc1	LAI	-	cytopathic effect / MTT	-	1–32 µM
COC(=O)N[C@H](C(=O)N[C@@H](Cc1ccccc1)C[C@H](O)[C@H](Cc1ccc(-c2cccc(CO)c2)cc1)NC[C@@H](NC(=O)OC)C(C)(C)C)C(C)(C)C	pNL4-3	-	MTT	-	21 nM
CN1c2ccccc2C2C1C=CC(=O)N2c1ccc(-c2noc(Cc3ccccc3)n2)cc1	LAI	-	cytopathic effect / MTT	-	>32 µM
COc1ccc(-c2nnc(S[C@@H]3O[C@H](CO)[C@@H](O)[C@H](O)[C@H]3O)n2N)cc1	NNRTI-resistant N119	RT-Y181C	-	-	>100 µM
CCn1cc(C(=O)O)c(=O)c2cc(F)c(N3CCN(CN4C(=O)C(=Nc5ccc(S(=O)(=O)Nc6ncccn6)cc5)c5cc(Br)ccc54)CC3)cc21	IIIB	-	cytopathic effect / MTT	-	>62 µg/mL
CC(C)c1c(Cc2ccccc2)n(COCCOc2ccccc2)c(=O)[nH]c1=O	IIIB	-	MTT	-	0.06 µM
CCn1cc(C(=O)O)c(=O)c2cc(F)c(N3CCN(CN4C(=O)C(=Nc5ccc(S(=O)(=O)Nc6ncnc(OC)c6OC)cc5)c5cc(Br)ccc54)CC3)cc21	IIIB	-	cytopathic effect / MTT	-	>34 µg/mL
CNC(=O)c1cccc(-c2ccc(C[C@H](NC[C@@H](NC(=O)OC)C(C)(C)C)[C@@H](O)C[C@H](Cc3ccccc3)NC(=O)[C@@H](NC(=O)OC)C(C)(C)C)cc2)c1	pNL4-3	-	MTT	-	159 nM